A mixed list of measured activities; the numbers were collected in NIAID ChemDB.

All rows: tests in culture

Two numbers with a dash give a range or band. ECn is the concentration giving n% inhibition of infection, replication or growth. Percent inhibition refers to the dose given; in toxicity tests it is the harm to the cells. Lines come from different laboratories, so protocols vary. A number after MIC or MFC names an inhibition level or a share of isolates. Blank or dashed fields: not listed here. Fold resistance: result on the changed form divided by that on wild type.

compound,setting,mutations,method,organism,measure,cells,tested at,strain or isolate,value
Nc1nc2c(ncn2[C@H]2C[C@H](F)[C@@H](COP(=O)(O)OP(=O)(O)OP(=O)(O)O)O2)c(=O)[nH]1,,,ELISA,Duck hepatitis B virus,EC50,HEPG,,,0.1 µM
CO[C@H]1C[C@H](O[C@H]2CC[C@]3(C=O)[C@H]4CC[C@]5(C)[C@@H](C6=CC(=O)OC6)CC[C@]5(O)[C@@H]4CC[C@]3(O)C2)O[C@H](C)[C@H]1O[C@H]1O[C@H](CO)[C@@H](O)[C@H](O)[C@H]1O,,,GFP / microscopy,Kaposi sarcoma virus,EC50,BC3,,,0.1 µM
Cc1c(N2CCCC2N)c(F)cn2c(=O)c(C(=O)O)cc(C3CC3)c12,,,,Enterococcus faecium,MIC,,,ATCC 8043,0.05 µg/mL
COc1ccc([Se][Se]c2ccc(OC)cc2)cc1,,,broth dilution,Candida dubliniensis,MIC,,,,8 µg/mL
NC(=S)N/N=C\c1ncccc1O,,,GFP / microscopy,Kaposi sarcoma virus,EC50,BC3,,,5 µM
C=CCc1ccc(O)c(-c2ccc(O)c(CC=C)c2)c1,,,broth dilution,Candida albicans,MIC,,,YL 342,128 µg/mL
CCOC(=O)Nc1cc2c(c(N)n1)N=C(c1cccc(OC)c1)CS2,,,,Encephalitozoon intestinalis,inhibition,RK-13,0.001 µg/mL,,31.9%
Cc1c(N2C[C@H](N)C3(CC3)C2)c(F)cn2c(=O)c(C(=O)O)cc(C3CC3)c12,,,,Enterococcus faecium,MIC,,,ATCC 8043,0.05 µg/mL
CC(C)COC(=O)C(O)Cn1cnc2c(N)ncnc21,,,cytopathic effect,Tacaribe virus,EC50,VERO,,TRVL 11573,9 µg/mL
C#CC[C@@H](C(=O)N[C@H](/C=C/C(=O)OCC)C[C@@H]1CCNC1=O)n1cccc(NC(=O)c2cc(C)on2)c1=O,,,cytopathic effect / XTT,Rhinovirus,EC50,H1-HELA,,Serotype 53,0.036 µM
CC(=O)OC[C@H]1O[C@@H](NC(=O)N(CCCl)N=O)[C@H](OC(C)=O)[C@@H](OC(C)=O)[C@@H]1OC(C)=O,,,GFP / microscopy,Kaposi sarcoma virus,EC50,BC3,,,>100 µM
O=c1c(O)c(-c2ccc(O)c(O)c2)oc2cc(O)cc(O)c12,,,,Rotavirus A,inhibition,VERO,60 µg/mL,SA-11,70%
O=C(O)P(=O)(O)O,6 d,,RT activity,HIV-1,inhibition,PBL,256 µM,IIIB,100%
COC(=O)[C@H]1[C@@H]2C[C@@H](O[C@@H]3O[C@H](C)[C@@H](O)[C@H](N)[C@@H]3O)/C=C/C=C/C=C/C=C/C=C/C=C/C=C/[C@H](C)[C@@H](O)[C@H](C)[C@H](C)OC(=O)C[C@H](O)C[C@H](O)[C@@H](O)CC[C@H](O)C[C@H](O)C[C@](O)(C[C@@H]1O)O2,,,plaque count,Vesicular stomatitis virus,inhibition,F6000,50 µg/mL,,0%
O=C1C(=O)c2ccccc2C(O)=C1C1CCC(c2ccc(Cl)cc2)CC1,,,microscopy / fluorescence,Plasmodium berghei,EC50,HepG2,,,0.003 µM
Nc1ncnc2c1ncn2[C@@H]1C=C(CO)[C@@H](O)[C@H]1O,,,cytopathic effect,Tacaribe virus,EC50,VERO,,TRVL 11573,0.3 µg/mL
c1cc(CN2CCCNCCNCCCNCC2)ccc1CN1CCCNCCNCCCNCC1,,,p24,HIV-1,inhibition,PBMC,0.5 µM,SW7 CLADE C X4,100%
CO/N=C(/C(=O)N[C@@H]1C(=O)N2C(C(=O)[O-])=C(C[N+]3(C)CCCC3)CS[C@H]12)c1csc(N)n1,,,,Pseudomonas aeruginosa,MIC,,,S10,4 µg/mL
C#Cc1c(C(N)=O)ncn1[C@@H]1O[C@H](CO)[C@@H](O)[C@H]1O,,,plaque count,Measles virus,EC50,VERO,,Edmonston,1.51 µg/mL
CC(=O)Oc1ccccc1C(=O)Nc1ncc([N+](=O)[O-])s1,,,,Encephalitozoon intestinalis,inhibition,RK-13,1 µg/mL,,57.5%
CN1CCC2(C1)C1CC3CC(C1)CC2C3,,,,Coxsackie virus,inhibition,HeLa,100 µM,TYPE A21,40–70%
CCCCCCCCCCCCCCCC[N+](C)(C)CCl,,,GFP / microscopy,Kaposi sarcoma virus,EC50,BC3,,,0.5 µM
CN[C@@H]1[C@@H](O)[C@@H](O[C@@H]2[C@@H](O)[C@H](O[C@H]3O[C@H](CN)CC[C@H]3N)[C@@H](N)C[C@H]2N)OC[C@]1(C)O,,,,Pseudomonas aeruginosa,MIC,,,S10,2 µg/mL
Nc1nccc2c1ncn2[C@@]12OCOC1[C@H](O)[C@@H](CO)O2,,,cytopathic effect,Tacaribe virus,EC50,VERO,,TRVL 11573,2.3 µg/mL
Cc1cn([C@H]2O[C@@H](CO)[C@H](O)[C@H]2F)c(=O)[nH]c1=O,,,,Duck hepatitis B virus,EC50,HepG2,,WILD TYPE,0.047 µM
Nc1ccn([C@@H]2CS[C@H](CO)O2)c(=O)n1,,,cytopathic effect,Adenovirus,EC50,HEL,,TYPE 2,>250 µM
CO[C@H]1[C@@H](OC(=O)/C=C/C=C/C=C/C=C/C(=O)O)CC[C@@]2(CO2)[C@@H]1[C@@]1(C)O[C@@H]1CC=C(C)C,,,,Vittaforma corneae,inhibition,RK-13,0.0001 µg/mL,,24.5%
O=c1c(O)c(-c2ccc(O)cc2)oc2cc(O)cc(O)c12,,,,Rotavirus A,EC50,VERO,,SA-11,>10 µg/mL
Nc1nc(=O)n2ccn([C@@H]3O[C@H](CO)[C@@H](O)[C@H]3O)c2n1,,,cytopathic effect,Dengue virus,EC50,VERO,,TYPE 2,10 µg/mL
CN1CCC2(C1)C1CCCC2CCC1,,,,Coxsackie virus,inhibition,HeLa,100 µM,TYPE A21,20–40%
NC(=O)c1nc(F)c[nH]c1=O,,,plaque count,Influenza B virus,EC50,MDCK,,Nagasaki/1/87,0.089 µg/mL
Nc1ccn([C@@H]2CS[C@H](CO)O2)c(=O)n1,,,,Duck hepatitis B virus,EC50,Huh7,,WILD TYPE,3.1 µM
NC12CC3CC(CC(C3)C1)C2,,,,Coxsackie virus,inhibition,HeLa,100 µM,TYPE A21,<20%
C[C@@H]1[C@H](O)[C@@H](C)/C=C/C=C/CC/C=C/C=C/C=C/C=C/C(O[C@H]2O[C@H](C)[C@@H](O)[C@H](N)[C@@H]2O)CC2O[C@](O)(CC(O)C(O)CCC(O)CC(O)CC(O)CC(=O)O[C@H]1C)CC(O)C2C(=O)O,,,broth dilution,Candida krusei,MFC100,,,ATCC 40147,64 µg/mL
Cc1c(N2C[C@@H](N)[C@@H](C3CC3)C2)c(F)cn2c(=O)c(C(=O)O)cc(C3CC3)c12,,,,Enterococcus faecium,MIC,,,ATCC 8043,0.05 µg/mL
CCOC(=O)Nc1cc2[nH]c(=O)c(-c3ccccc3)nc2c(N)n1,,,,Encephalitozoon intestinalis,inhibition,RK-13,0.01 µg/mL,,32.4%
CC[C@H](C)[C@H]1NC(=O)[C@@H](NC(=O)[C@@H](CC(C)C)NC)[C@@H](C)OC(=O)[C@H](Cc2ccc(OC)cc2)N(C)C(=O)[C@@H]2CCCN2C(=O)[C@H](CC(C)C)NC(=O)[C@@H](C)C(=O)[C@H](C(C)C)OC(=O)C[C@@H]1O,,,plaque count,Dengue virus,inhibition,LLC-MK2,2.5 µg/mL,TYPE 3,0%
c1ccc([Se][Se]c2ccccc2)cc1,,,broth dilution,Candida dubliniensis,MFC,,,,2–32 µg/mL
O=C(NC(=O)c1c(F)cccc1F)Nc1cc(Cl)c(OC(F)(F)C(F)C(F)(F)F)cc1Cl,,,,Vittaforma corneae,inhibition,RK-13,5 µg/mL,,40.9%
CC(C)(CO)C(=O)SCCOP(=O)(NCc1ccccc1)OC[C@H]1O[C@@H](n2cnc3c(=O)[nH]c(N)nc32)[C@](C)(O)[C@@H]1O,,L31V,replicon,Hepatitis C virus,fold resistance,Replicon cells,,GT1a,1.33
CCC#Cc1ccc2c(c1)c(=O)c(C(=O)NCc1ccc(Cl)cc1)nn2C,,,,Varicella zoster virus,inhibition,,20 µM,,90%
CC(C)N1CCC2(C1)C1CC3CC(C1)CC2C3,,,,Coxsackie virus,inhibition,HeLa,100 µM,TYPE A21,20–40%
Nc1ncnc2c1ncn2C[C@H](O)CO,,,cytopathic effect,Vesicular stomatitis virus,EC50,L929,,,70 µg/mL
NC(=O)c1ncn([C@@H]2O[C@H](CO)[C@@H](O)[C@H]2O)n1,,,cytopathic effect,Sandfly fever virus,EC50,VERO,,Sicilian,21.7 µg/mL
NC(=O)c1ncn([C@@H]2O[C@H](CO)[C@@H](O)[C@H]2O)n1,,,,Influenza A virus,MIC,,,A/England/42/72,0.1 µg/mL
Cc1ccc(C(=O)Nc2ccc(S(=O)(=O)O)c3cc(S(=O)(=O)O)cc(S(=O)(=O)O)c23)cc1NC(=O)c1cccc(NC(=O)Nc2cccc(C(=O)Nc3cc(C(=O)Nc4ccc(S(=O)(=O)O)c5cc(S(=O)(=O)O)cc(S(=O)(=O)O)c45)ccc3C)c2)c1,,,cytopathic effect,Sandfly fever virus,EC50,VERO,,Sicilian,14.7 µg/mL
CO[C@H]1[C@@H](O)[C@@H](C)O[C@H](O[C@H]2[C@H](Oc3cccc4c(O)c5c(=O)oc6ccc(C)c7c(=O)oc(c34)c5c67)O[C@H](C)[C@H](O)[C@@H]2O)[C@@H]1O,,,GFP / microscopy,Kaposi sarcoma virus,EC50,BC3,,,5 µM
C#C[C@]1(CO)O[C@@H](n2cnc3c(N)nc(F)nc32)CC1O,,K65R,β-galactosidase / absorbance,HIV-2,fold resistance,MAGIC-5A,,ROD9,0.4
O=S(=O)(O)c1cc(N=C=S)ccc1/C=C/c1ccc(N=C=S)cc1S(=O)(=O)O,,,p24,HIV-1,inhibition,JM,100 µg/mL,GB8,99.8%
Nc1ccn(C[C@@H](CO)OCP(=O)(O)O)c(=O)n1,,,PCR,Adenovirus,EC50,HEL,,TYPE 2,3.1 µM
O=c1c(O)c(-c2ccc(O)c(O)c2)oc2cc(O)cc(O)c12,,,broth dilution,Candida tropicalis,MIC50,,,Clinical isolate 5,>128 µg/mL
CCC(NC)C1CCN(c2c(F)cn3c(=O)c(C(=O)O)cc(C4CC4)c3c2C)C1,,,,Enterococcus faecium,MIC,,,ATCC 8043,0.05 µg/mL
O=C(CCCN1CC=C(n2c(=O)[nH]c3ccccc32)CC1)c1ccc(F)cc1,,,flow cytometry,Saccharomyces cerevisiae,inhibition,,5 µM,CaCdr2p,86.7%
CC(C)CCCC(=O)CCCCCCC(=O)CCN(O)C(=O)C(N)CO,,,GFP / microscopy,Kaposi sarcoma virus,EC50,BC3,,,>100 µM
O=c1[nH]c(=O)n([C@H]2C[C@H](O)[C@@H](CO)O2)cc1/C=C/Br,,,,Adenovirus,EC50,HEL,,TYPE 2,>1000 µM
Nc1nc(N)c2ncn([C@H]3CO[C@@H](CO)O3)c2n1,,,,Duck hepatitis B virus,EC50,LMH,,WILD TYPE,16.9 µM

Repeating the final 8 entries:

| compound | setting | mutations | method | organism | measure | cells | tested at | strain or isolate | value |
|---|---|---|---|---|---|---|---|---|---|
| O=S(=O)(O)c1cc(N=C=S)ccc1/C=C/c1ccc(N=C=S)cc1S(=O)(=O)O |  |  | p24 | HIV-1 | inhibition | JM | 100 µg/mL | GB8 | 99.8% |
| Nc1ccn(C[C@@H](CO)OCP(=O)(O)O)c(=O)n1 |  |  | PCR | Adenovirus | EC50 | HEL |  | TYPE 2 | 3.1 µM |
| O=c1c(O)c(-c2ccc(O)c(O)c2)oc2cc(O)cc(O)c12 |  |  | broth dilution | Candida tropicalis | MIC50 |  |  | Clinical isolate 5 | >128 µg/mL |
| CCC(NC)C1CCN(c2c(F)cn3c(=O)c(C(=O)O)cc(C4CC4)c3c2C)C1 |  |  |  | Enterococcus faecium | MIC |  |  | ATCC 8043 | 0.05 µg/mL |
| O=C(CCCN1CC=C(n2c(=O)[nH]c3ccccc32)CC1)c1ccc(F)cc1 |  |  | flow cytometry | Saccharomyces cerevisiae | inhibition |  | 5 µM | CaCdr2p | 86.7% |
| CC(C)CCCC(=O)CCCCCCC(=O)CCN(O)C(=O)C(N)CO |  |  | GFP / microscopy | Kaposi sarcoma virus | EC50 | BC3 |  |  | >100 µM |
| O=c1[nH]c(=O)n([C@H]2C[C@H](O)[C@@H](CO)O2)cc1/C=C/Br |  |  |  | Adenovirus | EC50 | HEL |  | TYPE 2 | >1000 µM |
| Nc1nc(N)c2ncn([C@H]3CO[C@@H](CO)O3)c2n1 |  |  |  | Duck hepatitis B virus | EC50 | LMH |  | WILD TYPE | 16.9 µM |